PubChem BioAssay AID624099 – ICCB-Longwood | 2012

Screen: 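Host factors E2 relies on to silence an HPV18 LCR reporter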 (primary screen)
Cells: human C33A cervical carcinoma cells (HPV-negative) stably expressing BPV1 E2 and an HPV18 LCR luciferase reporter
Reagent: siRNA pool against human genes, 40 nM
Time to read-out: 72 h
Measured: 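Per-well luciferase luminescence, z-scored on each plate against the plate mean and SD with control wells left out, then averaged across three replicate plates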
Direction: mean z-score and z-score: higher = stronger reporter signal, weaker E2 silencing
Call rule: 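Mean z ≥ 2 together with z ≥ 2 in two or more of the three replicates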
This is one part, drawn at random, of about 21,000 reagents tested. 497 of them (2.4%) were called active. 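Higher z means weaker E2 silencing; only reporter increases were scored, and knock-downs that hurt cell survival may mask genuine repressor factors.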 Unmarked entries are inactive.

no.	gene	mean z-score	z-score, replicate A	z-score, replicate B	z-score, replicate C
1	SLC2A14 (GeneID 144195)	-0.75	-0.67	-0.6	-1
2	COX7C (GeneID 1350)	-0.14	-0.24	0.08	-0.27
3	NEK4 (GeneID 6787)	0.23	0.08	-0.01	0.62
4	CFAP210 (GeneID 129881)	0.64	0.94	0.16	0.81
5	VEGFD (GeneID 2277)	1.39	1.23	1.6	1.33
6	MYH2 (GeneID 4620)	0.12	-0.12	-0.08	0.54
7	CAPN12 (GeneID 147968)	-1.35	-0.81	-1.41	-1.82
8	ATP5MC2 (GeneID 517)	-0.77	-0.49	-0.68	-1.16
9	OR2W1 (GeneID 26692)	2.18 (active)	2.11	2.2	2.24
10	LOC339997 (retired record) (GeneID 339997)	0.22	-0.06	0.68	0.04
11	CINP (GeneID 51550)	0.78	0.12	1.12	1.11
12	ASIC2-AS1 (GeneID 147004)	1.6	1.4	1.99	1.43
13	NAV2-AS5 (GeneID 100874012)	-0.16	-0.03	-0.53	0.07
14	OR51E2 (GeneID 81285)	-0.16	-0.57	0.16	-0.07
15	LOC139046 (retired record) (GeneID 139046)	0.84	1.42	0.71	0.38
16	GANAB (GeneID 23193)	0.46	0.5	0.13	0.74
17	RANBP1P1 (GeneID 389842)	1.51	1.53	1.08	1.93
18	CKAP2 (GeneID 26586)	0.27	-0.08	0.16	0.73
19	PRPF4 (GeneID 9128)	-0.73	-0.81	-0.8	-0.58
20	RABAC1 (GeneID 10567)	0.19	0.1	0.24	0.24
21	C1orf54 (GeneID 79630)	0.76	0.84	0.78	0.64
22	TINAG (GeneID 27283)	-0.92	-1.25	-0.93	-0.59
23	EFHC1 (GeneID 114327)	0.43	0.39	0.39	0.5
24	LINC00161 (GeneID 118421)	-1.14	-0.97	-1.39	-1.08
25	LBX2 (GeneID 85474)	-1.22	-1.35	-1.17	-1.14
26	DGAT1 (GeneID 8694)	-0.93	-0.54	-1.05	-1.21
27	FOXP2 (GeneID 93986)	-0.84	-0.95	-0.68	-0.89
28	PTGER2 (GeneID 5732)	1.05	0.73	1.03	1.39
29	HSP90AA1 (GeneID 3320)	0.13	0.18	0.07	0.14
30	GTF3C2 (GeneID 2976)	-0.09	-0.03	-0.15	-0.1
31	OR10G2 (GeneID 26534)	-0.06	-0.39	0.16	0.03
32	GAL (GeneID 51083)	0.21	0.26	0.15	0.23
33	WDR75 (GeneID 84128)	-0.09	0.09	-0.19	-0.18
34	AP1S3 (GeneID 130340)	1.53	1.6	1.47	1.52
35	ZNF475 (GeneID 100505841)	-0.95	-0.91	-0.75	-1.18
36	GRIA4 (GeneID 2893)	-0.96	-0.98	-0.86	-1.04
37	CARM1LP (GeneID 100130873)	0.36	0.44	0.61	0.03
38	PRR14 (GeneID 78994)	-0.86	-1.01	-0.8	-0.77
39	POTED (GeneID 317754)	1.4	1.04	1.57	1.57
